Compound potency records, mixed from different reports. Data source: NIAID ChemDB in PubChem.

All rows: growth or infection tests; organism: HIV-1; cell line: MT-2; read-out: EC50

Neighbouring rows are from separate reports.

smiles | strain | read by | result
COC1(C)CCN(c2c(-c3ccc(OCC(C)C)cn3)cnc(C)c2[C@H](OC(C)(C)C)C(=O)O)CC1 | NL4-3 | luminescence | 14.8 µM
Cc1nnc(CN(CCN(C)C)C[C@H](O)[C@@]23CC[C@]4(C)[C@H](CC[C@@H]5[C@@]6(C)CC[C@H](OC(=O)[C@H]7C[C@@H](C(=O)O)C7(C)C)C(C)(C)[C@@H]6CC[C@]54C)C2=C(C(C)C)C(=O)C3)o1 | 92HT599 | p24 / ELISA | <1 µM
Nc1nc(N)c2ncn([C@H]3C=C[C@@H](CO)C3)c2n1 | IIIB | cytopathic effect / XTT | 12.6 µM
CCC1(C)CCN(c2c(-c3ccc(OCC4CCOCC4)cn3)cnc(C)c2[C@H](OC(C)(C)C)C(=O)O)CC1 | NL4-3 | luminescence | 2 µM
NC(N)=NCCC[C@H](N)C(=O)NC[C@@H]1OC(O[C@H]2[C@@H](O)[C@H](O[C@@H]3[C@@H](O)[C@H](NC(=O)[C@@H](N)CCCN=C(N)N)C[C@H](NC(=O)[C@@H](N)CCCN=C(N)N)[C@H]3O[C@H]3O[C@H](CNC(=O)[C@@H](N)CCCN=C(N)N)[C@@H](O)[C@H](O)[C@H]3NC(=O)[C@@H](N)CCCN=C(N)N)O[C@@H]2CO)[C@H](NC(=O)[C@@H](N)CCCN=C(N)N)[C@@H](O)[C@@H]1O | B (AZT-resistant) | p24 / RT activity | 5.3 µM
C=C(C)[C@@H]1CC[C@]2(CNCCC(=O)N3CCn4cc(C(F)(F)F)cc4C3)CC[C@]3(C)[C@H](CC[C@@H]4[C@@]5(C)CC=C(c6ccc(C(=O)O)cc6)C(C)(C)[C@@H]5CC[C@]43C)[C@@H]12 | NL4-3 | - | <0.1 µM
CC(C)C1=C2[C@H]3CC[C@@H]4[C@@]5(C)CC[C@H](OC(=O)[C@H]6C[C@@H](C(=O)O)C6(C)C)C(C)(C)[C@@H]5CC[C@@]4(C)[C@]3(C)CC[C@@]2([C@@H](O)CNCC(C)(C)NC(=O)c2ccc(C(F)(F)F)cc2)CC1=O | 92HT599 | p24 / ELISA | <1 µM
Cc1ncc(-c2ccc(OCCC3CCOCC3)cn2)c(N2CCC3(CCCC3)CC2)c1[C@H](OC(C)(C)C)C(=O)O | NL4-3 | luminescence | 1 µM
CC(C)C1=C2[C@H]3CC[C@@H]4[C@@]5(C)CC[C@H](OC(=O)[C@H]6C[C@@H](C(=O)O)C6(C)C)C(C)(C)[C@@H]5CC[C@@]4(C)[C@]3(C)CC[C@@]2(CC(=O)NCc2ccc(N3CCN(C)CC3)cc2)CC1=O | 92HT599 | p24 / ELISA | <1 µM
CCCNc1nc(N)nc2c1ncn2[C@H]1C=C[C@@H](CO)C1 | IIIB | cytopathic effect / XTT | 15.5 µM
Cc1ccc(F)cc1S(=O)(=O)N1CCC2(CC1)OCCn1c2nc(C(=O)NCc2ccc(F)cc2)c(O)c1=O | NL4-3 | luciferase / reporter gene | 0.001–0.01 µM
CCC(F)(F)COc1ccc(-c2cnc(C)c([C@H](OC(C)(C)C)C(=O)O)c2N2CCC3(CCCC3)CC2)nc1 | NL4-3 | luminescence | 9 µM
CC(C)C1=C2[C@H]3CC[C@@H]4[C@@]5(C)CC[C@H](OC(=O)[C@H]6C[C@@H](C(=O)O)C6(C)C)C(C)(C)[C@@H]5CC[C@@]4(C)[C@]3(C)CC[C@@]2(CC(=O)NCc2ccc(CN3CCOCC3)cc2)CC1=O | 92HT599 | p24 / ELISA | <1 µM
C=C(C)[C@@H]1CC[C@]2(NCCN(C)C)CC[C@]3(C)[C@H](CC[C@@H]4[C@@]5(C)CC=C(c6ccc(C(=O)O)cc6)C(C)(C)[C@@H]5CC[C@]43C)[C@@H]12 | NL4-3 | - | <0.1 µM
COc1nc(N)nc2c1ncn2[C@H]1C=C[C@@H](CO)C1 | IIIB | cytopathic effect / XTT | 6.85 µM
CC(C)C1=C2[C@H]3CC[C@@H]4[C@@]5(C)CC[C@H](OC(=O)[C@H]6C[C@@H](C(=O)O)C6(C)C)C(C)(C)[C@@H]5CC[C@@]4(C)[C@]3(C)CC[C@@]2([C@@H](O)CN(CCN(C)C)C(=O)c2ccncn2)CC1=O | 92HT599 | p24 / ELISA | <1 µM
CCCOc1nc(N)nc2c1ncn2[C@@H]1C=C[C@H](CO)C1 | IIIB | cytopathic effect / XTT | 3.08 µM
CN(C)C(=O)N1CCC2(CC1)OCCCn1c2nc(C(=O)NCc2ccc(F)cc2)c(O)c1=O | NL4-3 | luciferase / reporter gene | 0.001–0.01 µM
Cc1ncc(-c2ccc(OCC3CCOC3)cn2)c(N2CCC3(CCCC3)CC2)c1[C@H](OC(C)(C)C)C(=O)O | NL4-3 | luminescence | 7.6 µM
[2H]C(CO)(CNC[C@H](O)[C@@]12CC[C@]3(C)[C@H](CC[C@@H]4[C@@]5(C)CC[C@H](OC(=O)[C@H]6C[C@@H](C(=O)O)C6(C)C)C(C)(C)[C@@H]5CC[C@]43C)C1=C(C(C)C)C(=O)C2)NC(=O)c1ccc(Cl)cc1 | 92HT599 | p24 / ELISA | <1 µM
CCC1(C)CCN(c2c(-c3ccc(OCC4CCOC4)cn3)cnc(C)c2[C@H](OC(C)(C)C)C(=O)O)CC1 | NL4-3 | luminescence | 3.9 µM
CN(C)S(=O)(=O)N1CCC2(CC1)OCCn1c2nc(C(=O)NCc2ccc(F)cc2-n2cncn2)c(O)c1=O | NL4-3 | luciferase / reporter gene | 0.001–0.01 µM
[2H]C(CCN)(CNC(=O)C[C@@]12CC[C@]3(C)[C@H](CC[C@@H]4[C@@]5(C)CC[C@H](OC(=O)[C@H]6C[C@@H](C(=O)O)C6(C)C)C(C)(C)[C@@H]5CC[C@]43C)C1=C(C(C)C)C(=O)C2)NC(=O)c1ccc(Cl)cc1 | 92HT599 | p24 / ELISA | <1 µM
Cc1ncc(-c2ccc(OCC3CCOCC3)cn2)c(N2CCC3CCCCC3C2)c1[C@H](OC(C)(C)C)C(=O)O | NL4-3 | luminescence | 5.6 µM
CCOc1nc(N)nc2c1ncn2[C@H]1C=C[C@@H](CO)C1 | IIIB | cytopathic effect / XTT | 5.78 µM
COC(=O)C(=O)N1CCC2(CC1)OCCn1c2nc(C(=O)NCc2ccc(F)cc2)c(O)c1=O | NL4-3 | luciferase / reporter gene | 0.01–0.1 µM
Cc1ncc(-c2ccc(OCC(C)C)cn2)c(N2CCC(C)(c3ccccc3)CC2)c1[C@H](OC(C)(C)C)C(=O)O | NL4-3 | luminescence | 3.1 µM

A second listing of 4 rows from above:

smiles	strain	read by	result
[2H]C(CO)(CNC[C@H](O)[C@@]12CC[C@]3(C)[C@H](CC[C@@H]4[C@@]5(C)CC[C@H](OC(=O)[C@H]6C[C@@H](C(=O)O)C6(C)C)C(C)(C)[C@@H]5CC[C@]43C)C1=C(C(C)C)C(=O)C2)NC(=O)c1ccc(Cl)cc1	92HT599	p24 / ELISA	<1 µM
Nc1nc(N)c2ncn([C@H]3C=C[C@@H](CO)C3)c2n1	IIIB	cytopathic effect / XTT	12.6 µM
Cc1ncc(-c2ccc(OCCC3CCOCC3)cn2)c(N2CCC3(CCCC3)CC2)c1[C@H](OC(C)(C)C)C(=O)O	NL4-3	luminescence	1 µM
Cc1ccc(F)cc1S(=O)(=O)N1CCC2(CC1)OCCn1c2nc(C(=O)NCc2ccc(F)cc2)c(O)c1=O	NL4-3	luciferase / reporter gene	0.001–0.01 µM

Blank or dashed fields: not listed here. a–b is a range or a potency band. ECn: concentration that inhibits the pathogen or its effect by n%.